Assay results as given in PMC11742723, “The clinical-stage drug BTZ-043 accumulates in murine tuberculosis lesions and efficiently acts against Mycobacterium tuberculosis” (Nature Communications, 2025).
“And” between values parts separate entries of the source, which are not always exact repeats. Equal values may be shown once.

Assay: Impact of γ-irradiation on BTZ-043 in spiked liver mimetic tissue cryosections
Design: species or system mouse
Settings: spiked tissue mimetic KW1001 9.7 µg/g, individual cryosections, LC-MS/MS (Figure S3a)

C[C@H]1COC2(CCN(c3nc(=O)c4cc(C(F)(F)F)cc([N+](=O)[O-])c4s3)CC2)O1 [BTZ-043]
ng BTZ-043 / mg tissue mimetic section (irradiated): 5.86 ng/mg and 7.42 ng/mg and 4.56 ng/mg and 7.66 ng/mg and 7.15 ng/mg and 6.78 ng/mg and 6.12 ng/mg | ng BTZ-043 / mg tissue mimetic section (non-irradiated): 5.82 ng/mg and 6.00 ng/mg and 6.37 ng/mg and 6.57 ng/mg and 6.6 ng/mg and 5.45 ng/mg
